Anti-infective test results gathered from many reports (values: NIAID ChemDB through PubChem).

Shared fields: whole-cell or culture tests; species: Candida albicans

ECn: concentration that inhibits the pathogen or its effect by n%.

SMILES	measure	cells	read by	conditions	strain or isolate	result
O=[N+]([O-])c1ccc2[nH]c3c4ccc(Cl)cc4nnc3c2c1	MIC					66 µM
CC(C)c1nc2cc(C(F)(F)F)cc(N)c2[nH]c1=O	MIC					>200 µM
COc1ccc(-c2nnc(Nc3nc(O)c(C4=c5cc([N+](=O)[O-])ccc5=NC4=O)s3)o2)cc1	MIC				ATCC 10231	16 µg/mL
Cc1ccc(N2N=C(c3c[nH]c4ccccc34)CC2c2cc(Cl)ccc2Cl)cc1	MIC		broth dilution		ATCC 90028	200 µg/mL
OC(CN1CCCN(CCCCOc2ccccc2)C1)(Cn1cncn1)c1ccc(F)cc1F	MIC80					2.12 µM
CC(C)CCC[C@@H](C)[C@H]1CCC2C3C(CC[C@@]21C)[C@@]1(C)CC[C@H](O)C=C1C[C@@H]3O	MIC50				CIP 1663-86	12.5 µg/mL
Cc1ncc(-c2ccc(I)cc2C(=O)N[C@@H](Cc2ccccc2)C(=O)NCC(=O)N[C@@H](Cc2ccccc2)C(=O)O)[nH]1	MIC					12.5 µg/mL
O=C(O)C1=CCCC1	MIC				ATCC10259	500 µg/mL
Nc1ncccc1-c1cc(Cc2ccc(COc3ccccn3)cc2)no1	MIC		broth dilution		8647	0.03 µg/mL
CC(C)CCC[C@@H](C)[C@H]1CCC2C3C(=O)C=C4CC(=O)CC[C@]4(C)C3CC[C@@]21C	MIC50				CIP 1663-86	>50 µg/mL
Clc1ccc(/C(Cn2ccnc2)=N/OCc2ccccc2)c(Cl)c1	MIC				CDCB385	4 µg/mL
CCn1c(-c2ccccn2)nsc1=O	MIC					0.12 µg/mL
CC(C)CCC[C@@H](C)[C@H]1CCC2C3C(CC[C@@]21C)[C@@]1(C)CCC(=O)CC1C[C@@H]3O	MIC50				CIP 1663-86	>50 µg/mL
CCCCCCCCCCCC(=O)c1c(O)cc(O)c([C@@H]2C[C@@H](c3ccc(O)cc3)Oc3cc(O)ccc32)c1O	EC50	VERO	colony count			8.8 µg/mL
CCCCCCNC(=S)N/N=C/C=C/c1ccccc1	MIC		broth dilution		ATCC 24433	500 µg/mL
c1ccc(CO/N=C(/Cn2ccnc2)c2ccccc2)cc1	MIC				Y0109	64 µg/mL
COC(=O)[C@@H](Cc1ccccc1)NC(=O)CNC(=O)[C@H](Cc1ccccc1)NC(=O)c1ccccc1-c1cnc(C)[nH]1	MIC					12.5 µg/mL
NC(=NC1CCCC1)c1ccc(-c2ccc(-c3ccc(C(N)=NC4CCCC4)cc3)o2)cc1	MIC				Isolate 3022 fluconazole-resistant	12.5 µg/mL
Nc1cc(C(F)(F)F)cc2[nH]c(=O)c(C(F)(F)F)nc12	MIC					>200 µM
CCCSc1cc(=S)ss1	MIC				ATCC 10231	25 µg/mL
C[C@H]1[C@H](O)[C@@H](C)/C=C/C=C/C=C/C=C/C=C/C=C/C=C/[C@H](O[C@@H]2O[C@H](C)[C@@H](O)[C@H](N)[C@@H]2O)C[C@@H]2O[C@](O)(C[C@@H](O)C[C@@H](O)CC[C@H](O)[C@@H](O)C[C@@H](O)CC(=O)O[C@H]1C)C[C@H](O)[C@H]2C(=O)O	MIC100		broth dilution		ATCC 10231	<0.3 µg/mL
COc1ccc2[nH]c(=O)c(CBr)nc2c1Cl	MIC					>200 µM
OC(CN=C1CCN(CCCOc2ccccc2)CC1)(Cn1cncn1)c1ccc(F)cc1F	MIC80					>136 µM
O=C(O)C1=CCCCCC1	MIC				ATCC10259	200 µg/mL
C=C1CC[C@@H]2[C@](C)(CCC3[C@@]4(C)[C@H](O)CCC(C)(C)[C@@H]4CC[C@]32C)[C@H]1CN=C(N)N	MIC					4 µM
C/C=C/C1=CC2=C(CO1)C(=O)[C@](C)(O)[C@H](OC(=O)c1c(C)cc(O)c(O)c1OC)C2	MIC		broth dilution			>256 µg/mL
Cc1ccc2c(c1)=C(c1sc(Nc3nnc(-c4ccccc4)o3)nc1O)C(=O)N=2	MIC				ATCC 10231	16 µg/mL
O=C(COc1cc(=O)oc2ccccc12)N[C@@H](Cc1ccc(O)cc1)C(=O)O	MIC					12.5 µg/mL
Cn1c(-c2ccccn2)nsc1=O	MIC					0.06 µg/mL
CC(=O)N1CCN(c2ccc(OC[C@H]3CO[C@](Cn4ccnc4)(c4ccc(Cl)cc4Cl)O3)cc2)CC1	MIC		broth dilution		ATCC 90028	12.5 µg/mL
CCCC1=CC2=C(CO1)C(=O)[C@](C)(OC(=O)c1c(C)cc(O)c(O)c1OC)[C@H](O)C2	MIC		broth dilution			>256 µg/mL
COc1ccc(-c2nnc(Nc3nc(O)c(C4=c5cc(Br)ccc5=NC4=O)s3)o2)cc1	MIC				ATCC 10231	16 µg/mL
COc1ccc2[nH]c(=O)c(C(C)C)nc2c1Cl	MIC					>200 µM
CCC(C)CC(C)CCCCCCCCC(=O)N[C@H]1C[C@@H](O)[C@H](NCCN)NC(=O)[C@@H]2[C@@H](O)CCN2C(=O)[C@H]([C@H](O)CCN)NC(=O)[C@H]([C@H](O)[C@@H](O)c2ccc(O)cc2)NC(=O)[C@@H]2C[C@@H](O)CN2C(=O)[C@H]([C@@H](C)O)NC1=O	MIC90		broth dilution			4 µg/mL
Fc1ccc(OC(CCn2ccnc2)c2ccccc2)c(F)c1	MFC90				20 strains	128 µg/mL
O=c1[nH]c2c(Cl)c(Cl)ccc2nc1CBr	MIC					>200 µM
CC(C)CCC[C@@H](C)[C@H]1CCC2C3C(CC[C@@]21C)[C@@]1(C)CC[C@H](O)CC1=C[C@H]3O	MIC50				CIP 1663-86	>50 µg/mL
S=C(N/N=C/c1c[nH]c2ccccc12)NC1CCCCC1	MIC		broth dilution		ATCC 24433	500 µg/mL
COc1cc(O)c2c(c1)C(=O)c1c(cc3c(c1O)-c1c(cc(C)c(C(=O)NC(CO)C(=O)O)c1O)[C@H](OC1OC(C)C(O)C(OC4OCC(O)C(O)C4O)C1O)C3O)C2=O	MIC				97 strains	4 µg/mL
C/C=C/C1=CC2=C(CO1)C(=O)[C@](C)(O)[C@H](OC(=O)c1c(C)cc(O)cc1O)C2	MIC		broth dilution			>256 µg/mL
CCOC(=O)N1CCC(Br)(C(=O)O)CC1	MIC				ATCC10259	100 µg/mL
CN(CCCCOc1ccccc1)CC(O)(Cn1cncn1)c1ccc(F)cc1F	MIC80					0.04 µM
Clc1ccc(/C(Cn2ccnc2)=N/OCc2ccccc2)cc1	MIC				CA2	16 µg/mL
CN(CCCCCOc1ccccc1)CC(O)(Cn1cncn1)c1ccc(F)cc1F	MIC80					0.04 µM
O=C(CCCCCCCCc1ccccc1)c1c(O)cc(O)c([C@@H]2C[C@H](c3ccc(O)cc3)Oc3cc(O)ccc32)c1O.O=C(CCCCCCCCc1ccccc1)c1c(O)cc(O)c([C@@H]2C[C@H](c3ccc(O)cc3)Oc3cc(O)ccc32)c1O	EC50	VERO	colony count			5.9 µg/mL
Cc1noc(=S)n1-c1ccccc1	MIC					0.52 µg/mL
Cc1ccc2nnc3c4ccccc4[nH]c3c2c1	MIC					>200 µM
CCn1c(-c2ccncc2)noc1=S	MIC					0.95 µg/mL
O=C1N=c2ccc(F)cc2=C1c1sc(Nc2nnc(-c3ccccc3)o2)nc1O	MIC				ATCC 10231	16 µg/mL
S=c1nc(-c2ccccc2)[nH]s1	MIC					0.13 µg/mL
O=c1[nH]c2ccc(Cl)c(Cl)c2nc1C(F)(F)F	MIC					>200 µM
CCNC(=S)N/N=C/C=C/c1ccccc1	MIC		broth dilution		ATCC 24433	250 µg/mL
Cc1ccc(N2N=C(c3c[nH]c4ccccc34)CC2c2ccc(Cl)cc2Cl)cc1	MIC		broth dilution		ATCC 90028	200 µg/mL
CC(C)(C)CSc1cc(=S)ss1	MIC				Clinical isolate 00-622	8 µg/mL
CN=[N+]([O-])CC[C@H](N)C(=O)O	MIC80				ATCC 10231	4.2 µg/mL
Cn1cccc1CC(=O)NNC(=O)NCCCCCCNC(=O)NNC(=O)Cc1cccn1C	MIC				ATCC 90028	7.5 µg/mL
CN(CCCOc1ccccc1)CC(O)(Cn1cncn1)c1ccc(F)cc1F	MIC80					0.01 µM
Fc1ccc(/C(Cn2ccnc2)=N/OCc2ccccc2)cc1	MIC				5M	128 µg/mL
Brc1ccc2[nH]c3c4ccccc4nnc3c2c1	MIC					>200 µM
O=c1[nH]c2ccc(Cl)c(Cl)c2nc1CBr	MIC					>200 µM
O=C(/C=C/c1cccc(Cl)c1Cl)c1c[nH]c2ccccc12	MIC		broth dilution		ATCC 90028	200 µg/mL
CCCCNC(=S)N/N=C/C=C/c1ccccc1	MIC		broth dilution		ATCC 24433	250 µg/mL
C=C1/C=C(\C)[C@H](CC)OC(=O)[C@H](C)C(=O)C(O)(CO)C/C(OC)=C/[C@@H](C)C1	MIC				CA2	2 µg/mL
C=C(C(=O)O)c1ccccc1	MIC				ATCC10259	200 µg/mL
Clc1ccc(/C(Cn2ccnc2)=N\OCc2ccccc2)cc1	MIC				CA12	128 µg/mL
CCCCCCCCCCCCSc1cc(=S)ss1	MIC				ATCC 10231	>250 µg/mL
O=c1cnc2ccc(Cl)cc2[nH]1	MIC					>200 µM
O=C1N=c2ccc(S(=O)(=O)[O-])cc2=C1c1sc(Nc2nnc(-c3ccccc3)o2)nc1O	MIC				ATCC 10231	16 µg/mL
CCCSc1ccc2nc(NC(=O)OC)[nH]c2c1	MIC			24 h	92-889	5 µg/mL
Cn1c(-c2ccncc2)noc1=S	MIC					1.02 µg/mL
CCCCCOc1ccc(-c2cc(-c3ccc(C(=O)N[C@H]4C[C@@H](O)[C@@H](O)NC(=O)[C@@H]5[C@@H](O)[C@@H](C)CN5C(=O)[C@H]([C@H](O)CC(N)=O)NC(=O)[C@H]([C@H](O)[C@@H](O)c5ccc(O)c(OS(=O)(=O)O)c5)NC(=O)[C@@H]5C[C@@H](O)CN5C(=O)[C@H]([C@@H](C)O)NC4=O)cc3)no2)cc1	MIC				142-5609A	0.0625 µg/mL
CCn1c(-c2ccccn2)noc1=S	MIC					0.95 µg/mL
CC(=O)NNC(=O)NCCCCCCNC(=O)NNC(C)=O	MIC				ATCC 90028	7.5 µg/mL

The last 11 rows once more:

SMILES | measure | cells | read by | conditions | strain or isolate | result
C=C1/C=C(\C)[C@H](CC)OC(=O)[C@H](C)C(=O)C(O)(CO)C/C(OC)=C/[C@@H](C)C1 | MIC |  |  |  | CA2 | 2 µg/mL
C=C(C(=O)O)c1ccccc1 | MIC |  |  |  | ATCC10259 | 200 µg/mL
Clc1ccc(/C(Cn2ccnc2)=N\OCc2ccccc2)cc1 | MIC |  |  |  | CA12 | 128 µg/mL
CCCCCCCCCCCCSc1cc(=S)ss1 | MIC |  |  |  | ATCC 10231 | >250 µg/mL
O=c1cnc2ccc(Cl)cc2[nH]1 | MIC |  |  |  |  | >200 µM
O=C1N=c2ccc(S(=O)(=O)[O-])cc2=C1c1sc(Nc2nnc(-c3ccccc3)o2)nc1O | MIC |  |  |  | ATCC 10231 | 16 µg/mL
CCCSc1ccc2nc(NC(=O)OC)[nH]c2c1 | MIC |  |  | 24 h | 92-889 | 5 µg/mL
Cn1c(-c2ccncc2)noc1=S | MIC |  |  |  |  | 1.02 µg/mL
CCCCCOc1ccc(-c2cc(-c3ccc(C(=O)N[C@H]4C[C@@H](O)[C@@H](O)NC(=O)[C@@H]5[C@@H](O)[C@@H](C)CN5C(=O)[C@H]([C@H](O)CC(N)=O)NC(=O)[C@H]([C@H](O)[C@@H](O)c5ccc(O)c(OS(=O)(=O)O)c5)NC(=O)[C@@H]5C[C@@H](O)CN5C(=O)[C@H]([C@@H](C)O)NC4=O)cc3)no2)cc1 | MIC |  |  |  | 142-5609A | 0.0625 µg/mL
CCn1c(-c2ccccn2)noc1=S | MIC |  |  |  |  | 0.95 µg/mL
CC(=O)NNC(=O)NCCCCCCNC(=O)NNC(C)=O | MIC |  |  |  | ATCC 90028 | 7.5 µg/mL

A number after MIC or MFC names an inhibition level or a share of isolates. An empty or dashed field is not shown. Neighbouring rows are from separate reports.